{"source": "PubChem BioAssay AID624099 (ICCB-Longwood, 2012)", "test": "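Knock-downs relieving repression by E2 of an HPV18 LCR luciferase reporter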 (primary screen)", "cell system": "human C33A cervical carcinoma cells (HPV-negative) stably expressing BPV1 E2 and an HPV18 LCR luciferase reporter", "reagents": "siRNA pool against human genes, 40 nM", "duration": "72 h", "read-out": "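HPV18 LCR reporter light per well, converted to plate-wise z-scores that exclude control wells, and averaged over triplicate plates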", "reading the numbers": "mean z-score and z-score: higher = stronger reporter signal, weaker E2 silencing", "call rule": "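Mean z ≥ 2 together with z ≥ 2 in two or more of the three replicates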", "note": "Here is a random part of about 21,000 reagents. In the full data, 497 (2.4%) are marked active. 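Higher z means weaker E2 silencing; only reporter increases were scored, and knock-downs that hurt cell survival may mask genuine repressor factors.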"}
{"Gene": "SH2D3A (SH2 domain containing 3A)", "mean z-score": 0.41, "z-score, replicate A": 0.47, "z-score, replicate B": 0.5, "z-score, replicate C": 0.26, "outcome": "inactive"}
{"Gene": "ST8SIA4 (ST8 alpha-N-acetyl-neuraminide alpha-2,8-sialyltransferase 4)", "mean z-score": 2.31, "z-score, replicate A": 2.1, "z-score, replicate B": 2.24, "z-score, replicate C": 2.58, "outcome": "active"}
{"Gene": "BRPF1 (bromodomain and PHD finger containing 1)", "mean z-score": -0.08, "z-score, replicate A": 0, "z-score, replicate B": 0, "z-score, replicate C": -0.25, "outcome": "inactive"}
{"Gene": "DPPA2 (developmental pluripotency associated 2)", "mean z-score": 0.92, "z-score, replicate A": 0.78, "z-score, replicate B": 1.05, "z-score, replicate C": 0.93, "outcome": "inactive"}
{"Gene": "LOC388791 (retired record)", "mean z-score": -0.67, "z-score, replicate A": -0.34, "z-score, replicate B": -0.86, "z-score, replicate C": -0.81, "outcome": "inactive"}
{"Gene": "GPR17 (G protein-coupled receptor 17)", "mean z-score": -0.95, "z-score, replicate A": -0.81, "z-score, replicate B": -0.83, "z-score, replicate C": -1.21, "outcome": "inactive"}
{"Gene": "CHIAP2 (chitinase, acidic pseudogene 2)", "mean z-score": 0.35, "z-score, replicate A": 0.01, "z-score, replicate B": 0.39, "z-score, replicate C": 0.65, "outcome": "inactive"}
{"Gene": "CNPPD1 (cyclin Pas1/PHO80 domain containing 1)", "mean z-score": -1.13, "z-score, replicate A": -1.09, "z-score, replicate B": -1.08, "z-score, replicate C": -1.24, "outcome": "inactive"}
{"Gene": "EDC4 (enhancer of mRNA decapping 4)", "mean z-score": -0.95, "z-score, replicate A": -0.91, "z-score, replicate B": -0.73, "z-score, replicate C": -1.23, "outcome": "inactive"}
{"Gene": "C3AR1 (complement C3a receptor 1)", "mean z-score": -0.36, "z-score, replicate A": -0.24, "z-score, replicate B": -0.52, "z-score, replicate C": -0.32, "outcome": "inactive"}
{"Gene": "RNF122 (ring finger protein 122)", "mean z-score": 1.74, "z-score, replicate A": 1.89, "z-score, replicate B": 1.96, "z-score, replicate C": 1.37, "outcome": "inactive"}
{"Gene": "GAR1 (GAR1 ribonucleoprotein)", "mean z-score": -0.07, "z-score, replicate A": 0.04, "z-score, replicate B": 0.03, "z-score, replicate C": -0.26, "outcome": "inactive"}
{"Gene": "GIT2 (GIT ArfGAP 2)", "mean z-score": 1.14, "z-score, replicate A": 1.16, "z-score, replicate B": 1.03, "z-score, replicate C": 1.24, "outcome": "inactive"}
{"Gene": "LOC402687 (retired record)", "mean z-score": -0.18, "z-score, replicate A": -0.34, "z-score, replicate B": 0, "z-score, replicate C": -0.2, "outcome": "inactive"}
{"Gene": "PTX4 (pentraxin 4)", "mean z-score": -0.33, "z-score, replicate A": -0.44, "z-score, replicate B": -0.04, "z-score, replicate C": -0.51, "outcome": "inactive"}

Ordered by “z-score, replicate A” (ascending): 5 of the entries above.
{"Gene": "CNPPD1 (cyclin Pas1/PHO80 domain containing 1)", "mean z-score": -1.13, "z-score, replicate A": -1.09, "z-score, replicate B": -1.08, "z-score, replicate C": -1.24, "outcome": "inactive"}
{"Gene": "EDC4 (enhancer of mRNA decapping 4)", "mean z-score": -0.95, "z-score, replicate A": -0.91, "z-score, replicate B": -0.73, "z-score, replicate C": -1.23, "outcome": "inactive"}
{"Gene": "GPR17 (G protein-coupled receptor 17)", "mean z-score": -0.95, "z-score, replicate A": -0.81, "z-score, replicate B": -0.83, "z-score, replicate C": -1.21, "outcome": "inactive"}
{"Gene": "LOC388791 (retired record)", "mean z-score": -0.67, "z-score, replicate A": -0.34, "z-score, replicate B": -0.86, "z-score, replicate C": -0.81, "outcome": "inactive"}
{"Gene": "CHIAP2 (chitinase, acidic pseudogene 2)", "mean z-score": 0.35, "z-score, replicate A": 0.01, "z-score, replicate B": 0.39, "z-score, replicate C": 0.65, "outcome": "inactive"}

Additional entries follow:
{"Gene": "ZMAT5 (zinc finger matrin-type 5)", "mean z-score": -1.16, "z-score, replicate A": -1.36, "z-score, replicate B": -1.43, "z-score, replicate C": -0.7, "outcome": "inactive"}
{"Gene": "OFCC1 (orofacial cleft 1 candidate 1 (pseudogene))", "mean z-score": 1.33, "z-score, replicate A": 1.63, "z-score, replicate B": 1.16, "z-score, replicate C": 1.2, "outcome": "inactive"}
{"Gene": "IGSF22 (immunoglobulin superfamily member 22)", "mean z-score": -0.98, "z-score, replicate A": -0.99, "z-score, replicate B": -0.97, "z-score, replicate C": -0.98, "outcome": "inactive"}
{"Gene": "ITM2A (integral membrane protein 2A)", "mean z-score": -0.26, "z-score, replicate A": -0.22, "z-score, replicate B": -0.38, "z-score, replicate C": -0.18, "outcome": "inactive"}
{"Gene": "ASTILCS", "mean z-score": -1, "z-score, replicate A": -0.76, "z-score, replicate B": -1.14, "z-score, replicate C": -1.12, "outcome": "inactive"}
{"Gene": "RAB3D (RAB3D, member RAS oncogene family)", "mean z-score": 1.09, "z-score, replicate A": 1.01, "z-score, replicate B": 1.13, "z-score, replicate C": 1.12, "outcome": "inactive"}
{"Gene": "ESRRG (estrogen related receptor gamma)", "mean z-score": -0.06, "z-score, replicate A": -0.07, "z-score, replicate B": -0.08, "z-score, replicate C": -0.02, "outcome": "inactive"}
{"Gene": "CCDC183 (coiled-coil domain containing 183)", "mean z-score": 0.18, "z-score, replicate A": 0.69, "z-score, replicate B": 0.18, "z-score, replicate C": -0.34, "outcome": "inactive"}
{"Gene": "GPR137C (G protein-coupled receptor 137C)", "mean z-score": -1.05, "z-score, replicate A": -0.93, "z-score, replicate B": -1.33, "z-score, replicate C": -0.88, "outcome": "inactive"}
{"Gene": "CD226 (CD226 molecule)", "mean z-score": 2.87, "z-score, replicate A": 2.97, "z-score, replicate B": 2.67, "z-score, replicate C": 2.98, "outcome": "active"}
{"Gene": "DCBLD1 (discoidin, CUB and LCCL domain containing 1)", "mean z-score": 0.07, "z-score, replicate A": -0.35, "z-score, replicate B": 0.06, "z-score, replicate C": 0.51, "outcome": "inactive"}
{"Gene": "KLF9 (KLF transcription factor 9)", "mean z-score": 1.52, "z-score, replicate A": 1.44, "z-score, replicate B": 1.33, "z-score, replicate C": 1.8, "outcome": "inactive"}
